A mixed list of measured activities; the numbers were collected in NIAID ChemDB.

Shared fields: tests in culture; agent: HIV-1; read by: cytopathic effect / MTT; measure: EC50

Rows are shuffled and stem from different studies. Blank or dashed fields: not listed here. ECn: concentration that inhibits the pathogen or its effect by n%.

| smiles | cell line | changes | strain | result |
|---|---|---|---|---|
| CCOP(=O)(N[C@@H](CC(C)C)C(=O)OC)OC[C@H]1O[C@@H](n2cc(C)c(=O)[nH]c2=O)C[C@@H]1N=[N+]=[N-] | MT-4 | - | IIIB | 0.2 µg/mL |
| FC(F)(F)c1ccc2nc3n(c2c1)C(c1c(Cl)cccc1Cl)SC3 | MT-4 | - | IIIB | >19.3 µM |
| CCCCCCCCCCCC(=O)O[C@H]1C(C)=C[C@]23C(=O)[C@@H](C=C(CO)[C@@H](O)[C@]12O)[C@@H]1C(C)(C)[C@]1(OC(=O)CCCCCCCCCCC)C[C@H]3C | MT-4 | - | - | 0.014 µg/mL |
| CC(C)CN(C[C@@H](O)[C@H](Cc1ccccc1)NC(=O)OCc1ccccc1)S(=O)(=O)c1ccc2nc(N)sc2c1 | CEM | - | IIIB | 0.015 µM |
| Nc1nc(=O)n([C@@H]2C=C[C@H](CO)O2)cc1F | MT-2 | - | IIIB | 0.09 µM |
| C[C@H](NC(=O)[C@H](Cc1ccc2ccccc2c1)NC(=O)[C@H](CCCN=C(N)N)NC(=O)[C@@H](N)CCCN=C(N)N)C(=O)N[C@@H](Cc1ccc(O)cc1)C(=O)O | MT-4 | - | IIIB | >100 µM |
| CCOCn1c(Sc2cc(C)cc(C)c2)c(CC)c(=O)[nH]c1=S | MT-4 | - | HE | 0.011 µM |
| Cc1c(C(C)c2c(F)cccc2F)nc(SC2CCCC2)[nH]c1=O | MT-4 | - | NL4-3 | 0.0011 µM |
| Nc1ccn([C@H]2CC[C@@H](CO)O2)c(=O)n1 | MT-4 | - | IIIB | 7.5 µM |
| COc1ccc(CN[C@@H](C(=O)N[C@H](C(=O)NCCc2ccc(O)cc2)C(C)C)[C@H](O)[C@H](Cc2ccccc2)NC(=O)[C@@H](NC(=O)OCc2ccccc2)C(C)C)cc1 | MT-4 | - | IIIB | 1.45 µM |
| CC1=C[C@]23C(=O)[C@@H](C=C(COC(=O)C(C)(C)C)[C@@H](O)[C@]2(O)[C@H]1OC(=O)C(C)(C)C)[C@H]1[C@@H](C[C@H]3C)C1(C)C | MT-4 | - | - | 0.0033 µg/mL |
| CNC(C)[C@H]1O[C@H](O[C@@H]2[C@@H](O)[C@H](O[C@@H]3OC[C@@](C)(O)[C@@H](NC)[C@@H]3O)[C@@H](NC(=O)[C@@H](N)CCCN=C(N)N)C[C@H]2NC(=O)[C@@H](N)CCCN=C(N)N)[C@H](NC(=O)[C@@H](N)CCCN=C(N)N)[C@@H](O)[C@@H]1O | MT-4 | - | AZT-resistant Clinical isolate | 22 µM |
| Cc1ccnc2c1NC(=O)c1cccnc1N2C1CC1 | MT-4 | - | IIIB | >0.03 µM |
| O=C1c2ccccc2C(=O)N1CCOC(=S)N(C(=O)c1ccccc1)c1ccccc1 | MT-4 | RT-K103R V179D P225H | IIIB | >100 µM |
| CC(C)=CCN1Cc2cccc3[nH]c(=S)n(c23)C[C@@H]1C | MT-4 | RT-Y188L | 1506-RS (RT-Y188L) | >100 µM |
| COc1ccc(S(=O)(=O)O)cc1N=Nc1c(S(=O)(=O)O)cc2cc(Nc3nc(Nc4ccccc4)nc(Nc4cc(C)c(N=Nc5cc(S(=O)(=O)O)cc6cc(S(=O)(=O)O)cc(O)c56)cc4OC)n3)ccc2c1O | MT-4 | GP41-L33S | NL4-3 | 0.3 µg/mL |
| NC(N)=NCCC[C@H](NC(=O)[C@@H](Cc1ccc(O)cc1)NC(=O)[C@H](Cc1ccc2ccccc2c1)NC(=O)[C@H](CCCN=C(N)N)NC(=O)[C@@H](N)CCCN=C(N)N)C(=O)O | MT-4 | - | IIIB | >100 µM |
| CC(C)CN(C[C@@H](O)[C@H](Cc1ccccc1)NC(=O)OCc1cccnc1)S(=O)(=O)c1ccc2ncsc2c1 | CEM | - | IIIB | 0.011 µM |
| O=C(c1ccccc1)N1C(=O)N(Cc2ccccc2)S(=O)(=O)c2cscc21 | MT-4 | - | IIIB | >133 µM |
| Cc1cccc(C)c1OCC(=O)N[C@@H](Cc1ccccc1)[C@H](O)CN(CC(C)C)S(=O)(=O)c1ccc2nc(N)sc2c1 | CEM | - | IIIB | 0.003 µM |
| COc1c(O)c(Cl)c2c(c1OC)-c1c(c(Cl)c(O)c(OC)c1OC)C[C@H](C)[C@H](C)C2 | MT-2 | RT-Y181C | N119 nevirapine-resistant (RT Y181C) | >20 µM |
| C1CNCCNCC(CCOCCOCCC2CNCCNCCCNCCNC2)CNCCNC1 | MT-4 | - | RF | 2.27 µM |
| CCCCCCCCCCCC(=O)O[C@@]12C[C@@H](C)[C@]34C=C(C)[C@H](OC(=O)CCCCC)[C@@]3(O)[C@H](O)C(CO)=C[C@H](C4=O)[C@@H]1C2(C)C | MT-4 | - | - | 0.00044 µg/mL |
| O=C1c2ccccc2C(=O)N1CCOC(=S)N(C(=O)c1cccnc1Cl)c1ccc(Cl)cc1 | C8166 | - | IIIB | <0.005 µM |
| Cc1cn([C@H]2C[C@H](N=[N+]=[N-])[C@@H](CO)O2)c(=O)[nH]c1=O | MT-4 | - | IIIB | 0.0009 µg/mL |
| O=C1Nc2cscc2S(=O)(=O)N1c1cccc(Cl)c1 | MT-4 | - | IIIB | >110.7 µM |
| Cc1cn([C@H]2C=C[C@@H](CO)O2)c(=O)[nH]c1=O | MT-4 | - | IIIB | 0.31 µM |
| CC(C)[C@H](NC(=O)OCc1ccccc1)C(=O)N[C@@H](Cc1ccccc1)[C@@H](O)[C@@H](NCc1ccccc1)C(=O)N[C@H](C(=O)NCc1cccnc1)C(C)C | MT-4 | - | IIIB | 0.59 µM |
| CC(C)c1c(COC(N)=O)cn(Cc2ccncc2)c1Sc1ccccc1 | MT-4 | - | IIIB | 1.4 µM |
| Fc1ccc2c(c1)nc1n2C(c2c(F)cccc2Cl)SC1 | MT-4 | - | IIIB | 6.5 µM |
| O=c1[nH]cnc2c1ncn2[C@H]1CC[C@@H](CO)O1 | MT-2 | - | IIIB | 20 µM |
| Cc1ccnc2c1NC(=O)c1cccnc1N2C1CC1 | MT-2 | RT-Y181C | N119 nevirapine-resistant (RT Y181C) | >100 µM |
| CC(C)c1c(CO)cn(Cc2ccncc2)c1Sc1cc(Cl)cc(Cl)c1 | - | RT-K103N | - | <2.3 µM |
| CN1C(=O)N(Cc2ccccc2)c2cscc2S1(=O)=O | MT-4 | - | IIIB | >77.8 µM |
| O=C1c2ccccc2C(=O)N1CCOC(=S)N(C(=O)c1ccco1)c1ccc([N+](=O)[O-])cc1 | MT-4 | RT-K103R V179D P225H | IIIB | >100 µM |
| CCCCCCCCCCCC(=O)O[C@@]12C[C@@H](C)[C@]34C=C(C)[C@H](O)[C@@]3(O)[C@H](O)C(COC(=O)C(C)(C)C)=C[C@H](C4=O)[C@@H]1C2(C)C | MT-4 | - | - | 0.00071 µg/mL |
| OC[C@H]1N[C@H](CO)[C@@H](O)[C@@H]1O | MT-4 | - | IIIB | >250 µg/mL |
| O=C(c1ccccc1)c1ccc2nc3n(c2c1)C(c1c(F)cccc1Cl)SC3 | MT-4 | - | IIIB | >1.2 µM |
| COc1ccc(CN[C@@H](C(=O)N[C@H](C(=O)NCc2ccc(OC)cc2O)C(C)C)[C@H](O)[C@H](Cc2ccccc2)NC(=O)[C@@H](NC(=O)OCc2ccccc2)C(C)C)cc1 | MT-4 | - | IIIB | 0.033 µM |
| O=C1c2ccccc2C(=O)N1CCOC(=S)N(C(=O)c1cccs1)c1ccc(Cl)cc1 | MT-4 | RT-Y181C | N119 nevirapine-resistant (RT Y181C) | >100 µM |
| CC(C)(C)OC(=O)[C@@H]1CCCN1C[C@H](O)[C@H](Cc1ccccc1)NC(=O)[C@H](CC(N)=O)NC(=O)OCc1ccccc1 | MT-4 | - | IIIB | 158 µg/mL |
| CC(C)CN(C[C@@H](O)[C@H](Cc1ccccc1)NC(=O)OCc1cccnc1)S(=O)(=O)c1ccc2nc(N)sc2c1 | CEM | - | IIIB | 0.005 µM |
| CC(C)c1c(CO)cn(Cc2ccncc2)c1Sc1ccccc1 | - | RT-K103N | - | <9.6 µM |
| C#C[C@@]1(CO)C=C[C@H](n2cc(C)c(=O)[nH]c2=O)O1 | MT-2 | - | IIIB | 0.25 µM |
| Fc1cccc(F)c1C1SCc2nc3cc(C(F)(F)F)ccc3n21 | MT-4 | - | IIIB | >351 µM |
| CC(C)(C)NC(=O)[C@@H]1C[C@@H]2CCCC[C@@H]2CN1C[C@@H](O)[C@H](Cc1ccccc1)NC(=O)[C@H](CC(N)=O)NC(=O)c1ccc2ccccc2n1 | MT-4 | - | IIIB | <0.0005 µg/mL |
| CC(=O)Oc1ccc(/C=C/C(=O)O[C@H](C(=O)O)[C@H](OC(=O)/C=C/c2ccc(OC(C)=O)c(OC(C)=O)c2)C(=O)O)cc1OC(C)=O | MT-4 | DS-resistant | NL4-3 | >93 µM |
| O=C(O)P(=O)(O)O | MT-4 | - | IIIB | 12.6 µg/mL |
| CN1C(=O)N(Cc2ccccc2)S(=O)(=O)c2csc([N+](=O)[O-])c21 | MT-4 | - | IIIB | >368.8 µM |
| COc1ccc2c(c1)nc1n2C(c2c(F)cccc2F)SC1 | MT-4 | - | IIIB | >7.8 µM |
| O=c1ccn([C@H]2CC[C@@H](CO)O2)c(=O)[nH]1 | MT-4 | - | IIIB | 26 µg/mL |
| Cc1cccc(C)c1OCC(=O)N[C@@H](Cc1ccccc1)[C@H](O)CN(CC(C)C)S(=O)(=O)c1ccc2ncsc2c1 | CEM | - | IIIB | 0.042 µM |
| Fc1cccc(Cl)c1C1SCc2nc3ccc(C(F)(F)F)cc3n21 | MT-4 | - | IIIB | >15 µM |
| Nc1ccn([C@H]2CC[C@@H](CO)O2)c(=O)n1 | MT-4 | - | IIIB | 0.048 µg/mL |
| Cc1cn([C@H]2C[C@H](N=[N+]=[N-])[C@@H](CO)O2)c(=O)[nH]c1=O | MT-4 | - | IIIB | >0.0007 µM |
| Fc1cccc(F)c1C1SCc2nc3ccc(C(F)(F)F)cc3n21 | MT-4 | - | IIIB | >351 µM |
| Cc1ccnc2c1NC(=O)c1cccnc1N2C1CC1 | MT-4 | RT-K101E | - | 0.316 µM |
| C[C@H](NC(=O)[C@H](Cc1ccc2ccccc2c1)NC(=O)[C@H](CCCN=C(N)N)NC(=O)[C@@H](N)CCCN=C(N)N)C(=O)N[C@@H](Cc1ccc(O)cc1)C(=O)N[C@@H](CCCN=C(N)N)C(=O)O | MT-4 | - | IIIB | >100 µM |
| CCN(C)c1nc(C(C)c2c(F)cccc2F)c(C)c(=O)[nH]1 | MT-4 | RT-Y188L | NNRTI-resistant | 0.03 µM |
| Cc1c(O)cccc1C(=O)N[C@@H](Cc1ccccc1)[C@H](O)CN(CC(C)C)S(=O)(=O)c1ccc2ncsc2c1 | CEM | - | IIIB | 0.007 µM |

For reference, 9 entries again:

smiles,cell line,changes,strain,result
COc1ccc(S(=O)(=O)O)cc1N=Nc1c(S(=O)(=O)O)cc2cc(Nc3nc(Nc4ccccc4)nc(Nc4cc(C)c(N=Nc5cc(S(=O)(=O)O)cc6cc(S(=O)(=O)O)cc(O)c56)cc4OC)n3)ccc2c1O,MT-4,GP41-L33S,NL4-3,0.3 µg/mL
C1CNCCNCC(CCOCCOCCC2CNCCNCCCNCCNC2)CNCCNC1,MT-4,-,RF,2.27 µM
CCN(C)c1nc(C(C)c2c(F)cccc2F)c(C)c(=O)[nH]1,MT-4,RT-Y188L,NNRTI-resistant,0.03 µM
CCOP(=O)(N[C@@H](CC(C)C)C(=O)OC)OC[C@H]1O[C@@H](n2cc(C)c(=O)[nH]c2=O)C[C@@H]1N=[N+]=[N-],MT-4,-,IIIB,0.2 µg/mL
CC(C)c1c(CO)cn(Cc2ccncc2)c1Sc1ccccc1,-,RT-K103N,-,<9.6 µM
COc1ccc2c(c1)nc1n2C(c2c(F)cccc2F)SC1,MT-4,-,IIIB,>7.8 µM
O=C1c2ccccc2C(=O)N1CCOC(=S)N(C(=O)c1ccco1)c1ccc([N+](=O)[O-])cc1,MT-4,RT-K103R V179D P225H,IIIB,>100 µM
O=C(O)P(=O)(O)O,MT-4,-,IIIB,12.6 µg/mL
O=C1Nc2cscc2S(=O)(=O)N1c1cccc(Cl)c1,MT-4,-,IIIB,>110.7 µM